Source: PMC8922281, “Synthesis and In Vitro Biological Evaluation of Quinolinyl Pyrimidines Targeting Type II NADH-Dehydrogenase (NDH-2)” (ACS Infectious Diseases, 2022)

By UniProt entry, the sequences of proteins in these tests, tags left out. Residues count along the entry.
UniProt P95160, 2-463, added parts left off: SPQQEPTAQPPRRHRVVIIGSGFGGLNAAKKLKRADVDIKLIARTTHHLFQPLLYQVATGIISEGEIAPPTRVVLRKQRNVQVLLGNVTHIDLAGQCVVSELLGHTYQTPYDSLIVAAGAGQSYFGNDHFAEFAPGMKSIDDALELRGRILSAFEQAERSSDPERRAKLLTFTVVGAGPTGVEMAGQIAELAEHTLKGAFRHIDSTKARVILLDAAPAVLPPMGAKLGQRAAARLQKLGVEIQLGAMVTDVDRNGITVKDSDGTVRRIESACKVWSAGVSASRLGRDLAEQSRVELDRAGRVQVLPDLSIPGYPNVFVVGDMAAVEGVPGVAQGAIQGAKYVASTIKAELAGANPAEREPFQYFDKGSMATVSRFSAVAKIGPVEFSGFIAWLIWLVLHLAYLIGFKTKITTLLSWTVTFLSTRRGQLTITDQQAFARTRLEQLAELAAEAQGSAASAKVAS

Target: MtNDH-2 (Mycobacterium tuberculosis, UniProt P95160)
Assay type: biochemical, M. tuberculosis
Conditions: same IC50 given in μg/mL to assist comparisons with MICs

Polymyxin B [reference compound]
MtNDH-2 IC50: 0.41 µg/mL
